Test results reported in article PMC11125953 (Viruses, 2024).

System: E. Derm cells infected with EHV-4 405/76
Assay: Transcriptomic analysis
Assay type: cell-based, Equus caballus
Conditions: 25 µM DTB, MOI 2, 18 hpi

## Nc1ncn([C@H]2C[C@H](O)[C@@H](CO)O2)c(=O)n1 [Decitabine]
  number of down-regulated DEGs, EHV-4+DTB vs EHV-4: 25
  number of up-regulated DEGs, EHV-4+DTB vs EHV-4: 94
|Log2(FC)| > 1, adjusted p < 0.05
  number of DEGs, EHV-4+DTB vs EHV-4: 119
